Test results taken from US20030147847A1 (IMMUNEX, published 2003).

Molecular target: T1, Full length UL16 on transfected 293 EBNA cells (human cytomegalovirus, UniProt P16757 27-230)
T1 construct: whole, on cells; also called UL16 FL
T1 sequence: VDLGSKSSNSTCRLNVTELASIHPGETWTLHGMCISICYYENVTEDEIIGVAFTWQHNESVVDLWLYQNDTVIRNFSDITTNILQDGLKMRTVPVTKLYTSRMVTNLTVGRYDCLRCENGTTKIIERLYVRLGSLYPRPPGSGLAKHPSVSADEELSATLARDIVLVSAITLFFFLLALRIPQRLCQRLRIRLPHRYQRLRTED
Experiment: flow cytometry, transfected 293 EBNA cells, 2 µg Fc protein + goat anti-human IgG PE

B1: hCD40/Fc (Fc fusion, human, UniProt P25942 21-193, looked up)
chain: EPPTACREKQYLINSQCCSLCQPGQKLVSDCTEFTETECLPCGESEFLDTWNRETHCHQHKYCDPNLGLRVQQKGTSETDTICTCEEGWHCTSEACESCVLHRSCSPGFGVKQIATGVSDTICEPCPVGFFSNVSSAFEKCHPWTSCETKDLVVQQAGTNKTDVVCGPQDRLR
notes: Control Fc construct; not shown: Fc portion not described
  Mean Fluorescence Intensity (MFI): 11.5 MFI
